Compound potency records, mixed from different reports. Data source: NIAID ChemDB in PubChem.

All rows: growth or infection tests; agent: Candida albicans

ECn is the concentration giving n% inhibition of infection, replication or growth. MIC50, MIC90 and the like: level of inhibition, or share of isolates inhibited. An empty or dashed field is not shown. Rows are shuffled and stem from different studies.

smiles | strain or isolate | read-out | method | result
COc1cc(NC(C)CCCN)c2nc(C(C)(C)C)cc(C)c2c1Oc1cccc(C(F)(F)F)c1 |  | EC50 |  | 6.5 µg/mL
C[C@@H](n1cnc2cccc(F)c2c1=O)[C@](O)(Cn1cncn1)c1ccc(F)cc1F | 60 strains | MIC |  | 0.63 µg/mL
CCOC(=O)/C(N=Nc1ccc(C(=O)N/N=C\c2ccc(F)cc2)cc1)=C(\C)O | ATCC 2091 | MIC |  | 125 µg/mL
C[C@@H](n1cnc2cc(Cl)ccc2c1=O)[C@](O)(Cn1cncn1)c1ccc(Cl)cc1Cl | 76 strains | MIC |  | 0.07 µg/mL
Clc1cc(Cl)c2c(c1)CCc1ccccc1C2n1ccnc1 | 35 isolates | MIC50 |  | 0.03 µg/mL
CCN1CC(CC)(CC)OC(=O)C1CC(=O)Nc1ccc(C(C)C)cc1 | SC5314 | MIC | broth dilution | >25 µg/mL
CCCCCCCCCCCCn1cc[n+](COCCCCCOC[n+]2ccn(CCCCCCCCCCCC)c2)c1 | ATCC 90028 | MIC100 | agar diffusion | 30 µM
CCN1CC(C)(C)OC(=O)C1CC(=O)Nc1c(C)noc1C | SC5314 | MIC | broth dilution | >50 µg/mL
CCCCCCSc1cc(C(N)=S)ccn1 | 42 | MFC |  | 50 µg/mL
N=C(N)c1ccc2oc(-c3cnc(-c4cc5cc(C(=N)N)ccc5o4)[nH]3)cc2c1 |  | MIC |  | >60 µg/mL
CSc1nc2c(sc(=S)n2-c2ccccc2)c(=O)n1-c1ccccc1 | DSM 70443 | MIC |  | 60 µg/mL
CC(C)c1ccc(NC(=O)CC2C(=O)OC(C)(C)CN2C(C)C)cc1 | SC5314 | MIC | broth dilution | >25 µg/mL
Cc1cccc(-n2c(=S)sc3c(=O)n(-c4ccccc4)c(=S)[nH]c32)c1 | DSM 70443 | MIC |  | 90 µg/mL
CCCCCCCCn1cc[n+](COCCCCOC[n+]2ccn(CCCCCCCC)c2)c1 | ATCC 90028 | MIC100 | agar diffusion | 9 µM
C[C@@H](n1cnc2cc(N3CCN(c4ccc([N+](=O)[O-])cc4)CC3)ccc2c1=O)[C@](O)(Cn1cncn1)c1ccc(F)cc1F | 60 strains | MIC |  | 0.15 µg/mL
OC(Cn1cncn1)(Cn1cncn1)c1ccc(F)cc1F | SC5314 | MIC | broth dilution | >100 µg/mL
C[C@@H](n1cnc2cc(OCCF)ccc2c1=O)[C@](O)(Cn1cncn1)c1ccc(F)cc1F | 76 strains | MIC |  | 0.15 µg/mL
C=CCc1ccc(O)c(OC)c1 | ATCC 44829 | MIC90 | turbidity | 480 µg/mL
NC(=S)c1ccnc(SC2CCCCC2)c1 | 176 | MFC |  | 200 µg/mL
CCN1CC(C)(C)OC(=O)C1CC(=O)Nc1ccnn1C | SC5314 | MIC | broth dilution | >50 µg/mL
C[C@@H](n1cnc2cc(Sc3ccccc3)ccc2c1=O)[C@](O)(Cn1cncn1)c1ccc(F)cc1F | 60 strains | MIC |  | ≤0.03 µg/mL
Nc1ccc(-c2n[nH]c(=O)n2-c2ccccc2)cc1 | ATCC 2091 | MIC |  | 62.5 µg/mL
Nc1nc2c(sc(=S)n2-c2ccccc2)c(=O)n1-c1ccccc1 | DSM 70443 | MIC |  | 50 µg/mL
CCCCCCCCCCCCCSc1cc(C(N)=S)ccn1 | 3a | MIC |  | 100 µg/mL
CC[C@@H]([C@H](C)O)n1ncn(-c2ccc(N3CCN(c4ccc(OC[C@@H]5CO[C@@](Cn6cncn6)(c6ccc(F)cc6F)C5)cc4)CC3)cc2)c1=O |  | MIC50 | broth dilution | 0.03 µg/mL
CCCCCSc1cc(C(N)=S)ccn1 | 3a | MIC |  | 50 µg/mL
N=C(N)c1cccc(Oc2ccc(-c3cc4ccc(C(=N)N)cc4[nH]3)cc2)c1 |  | MIC |  | 10 µg/mL
CCCCn1cc[n+](COCCCCCOC[n+]2ccn(CCCC)c2)c1 | ATCC 90028 | MIC100 | agar diffusion | 690 µM
CC(C)c1ccc(NC(=O)CC2C(=O)OC(C)(C)CN2C)cc1 | SC5314 | MIC | broth dilution | >25 µg/mL
Cc1ccc2ncn([C@H](C)[C@](O)(Cn3cncn3)c3ccc(F)cc3F)c(=O)c2c1 | 76 strains | MIC |  | 10 µg/mL
CCOC(=O)/C(N=Nc1ccc(-c2n[nH]c(=S)n2CC)cc1)=C(\C)O | ATCC 2091 | MIC |  | 125 µg/mL
N=C(N)c1ccc(-c2cc3cc(C4=NCCN4)ccc3s2)cc1 |  | MIC |  | >60 µg/mL
OC(Cn1cncn1)(Cn1cncn1)c1ccc(F)cc1F | 406 strains | MIC |  | 2.5 µg/mL
CCCN1CC(C)(C)OC(=O)C1CC(=O)Nc1ccc(C(C)C)cc1 | SC5314 | MIC | broth dilution | >25 µg/mL
CCCCCCCCCCCCCCCCn1cc[n+](COCCCCOC[n+]2ccn(CCCCCCCCCCCCCCCC)c2)c1 | ATCC 90028 | MIC100 | agar diffusion | 104 µM
CCOC(=O)/C(N=Nc1ccc(-c2n[nH]c(=S)n2-c2ccccc2)cc1)=C(\C)O | ATCC 2091 | MIC |  | 62.5 µg/mL
C[C@@H](n1cnc2cc(C(N)=O)ccc2c1=O)[C@](O)(Cn1cncn1)c1ccc(F)cc1F | 76 strains | MIC |  | 10 µg/mL
CCN1C(CC(=O)Nc2ccc(C(C)C)cc2)C(=O)OC(C)(C)C1(C)C | SC5314 | MIC | broth dilution | >25 µg/mL
C[C@@H](c1ncncc1F)[C@](O)(Cn1cncn1)c1ccc(F)cc1F | 8647 | MIC | broth dilution | 0.015 µg/mL
C[C@@H](n1cnc2c(Cl)cc(Cl)cc2c1=O)[C@](O)(Cn1cncn1)c1ccc(F)cc1F | 60 strains | MIC |  | 0.07 µg/mL
CC(C)c1ccc(NC(=O)CC2C(=O)OC(C)(C)CN2CCF)cc1 | SC5314 | MIC | broth dilution | >25 µg/mL
N=C(N)c1ccc(OCCCCCOc2ccc(C(=N)N)cc2)cc1 |  | MIC |  | 3 µg/mL
CCCCCCCCCCn1cc[n+](COCCCCOC[n+]2ccn(CCCCCCCCCC)c2)c1 | ATCC 90028 | MIC100 | agar diffusion | 8 µM

For reference, 3 entries again:

smiles,strain or isolate,read-out,method,result
C[C@@H](n1cnc2cc(N3CCN(c4ccc([N+](=O)[O-])cc4)CC3)ccc2c1=O)[C@](O)(Cn1cncn1)c1ccc(F)cc1F,60 strains,MIC,,0.15 µg/mL
CCN1C(CC(=O)Nc2ccc(C(C)C)cc2)C(=O)OC(C)(C)C1(C)C,SC5314,MIC,broth dilution,>25 µg/mL
CCN1CC(C)(C)OC(=O)C1CC(=O)Nc1ccnn1C,SC5314,MIC,broth dilution,>50 µg/mL